Source: patent US20100242341A1, “CORROSION AND MICROBIAL CONTROL IN HYDROCARBONACEOUS COMPOSITIONS” (priority 2007, published 2010)

Assay: Corrosion testing of metal coupons immersed in fuel/water
Settings: aminoalcohol 0.427%, 50° C.

Compound: CCCCC(O)C(N)CC (stereo not drawn) [Example 3A4O, 3-amino-4-octanol]
- Corrosion (visual) (CI, Biodiesel 80%/water 20%): Yes
- Wt Loss (CI, Biodiesel 80%/water 20%): -0.0400 g
- Corrosion (visual) (CI, Diesel 80%/water 20%): Yes
- Wt Loss (CI, Diesel 80%/water 20%): -0.0008 g
- Corrosion (visual) (LCFGS, Biodiesel 80%/water 20%): No
- Wt Loss (LCFGS, Biodiesel 80%/water 20%): -0.0260 g
- Corrosion (visual) (LCFGS, Diesel 80%/water 20%): No
- Wt Loss (LCFGS, Diesel 80%/water 20%): -0.0024 g
- Corrosion (visual) (MCS, Biodiesel 80%/water 20%): No
- Wt Loss (MCS, Biodiesel 80%/water 20%): -0.0113 g
- Corrosion (visual) (MCS, Diesel 80%/water 20%): No
- Wt Loss (MCS, Diesel 80%/water 20%): 0.0000 g
